# Reference: PubChem BioAssay AID1224833 (University of Georgia, 2016)
# Test: 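Human genes whose knock-down alters rotavirus replication in monkey cells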 (primary screen)
# System: monkey MA104 kidney cells
# Knock-down reagent: siRNA pool against human genes, 50 nM
# Duration: 48 h knock-down before infection; read 24 h after infection
# Conditions: infection with rotavirus strain RV3 two days after transfection; infectious dose for this stage not given
# Measured: 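Rotavirus antigen per well by fluorescent immunoassay, normalised to non-targeting control wells on each plate and given as a standard z-score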
# Scale: z-score vs non-targeting control: higher = more rotavirus replication than with non-targeting control
# Rule for the call: In these data the active calls have z-score vs non-targeting control at about -1 or lower, or at about 1 or higher
# Calls: active = z-score beyond 1 either way; inactive = z-score within 1 of zero
# The whole screen tested about 12,000 reagents; this is a part drawn at random. About 5,600 of them (46%) count as active. 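Active calls cover z-scores past 1 in both directions, so they include lowered as well as raised rotavirus replication.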 No sequences are given here.
The opening 5 records, ahead of the listing:
Gene,z-score vs non-targeting control,call
ZC3HAV1L (ZC3HAV1 like),-1.9,active
PRRG1 (proline rich and Gla domain 1),-0.446,inactive
"DSTN (destrin, actin depolymerizing factor)",0.741,inactive
PSD (pleckstrin and Sec7 domain containing),-0.59,inactive
USF1 (upstream transcription factor 1),2.52,active

The listing, from the first entry:
Gene,z-score vs non-targeting control,call
ZC3HAV1L (ZC3HAV1 like),-1.9,active
PRRG1 (proline rich and Gla domain 1),-0.446,inactive
"DSTN (destrin, actin depolymerizing factor)",0.741,inactive
PSD (pleckstrin and Sec7 domain containing),-0.59,inactive
USF1 (upstream transcription factor 1),2.52,active
PDCD11 (programmed cell death 11),-1.13,active
SH2D1A (SH2 domain containing 1A),-0.807,inactive
GNG8 (G protein subunit gamma 8),0.422,inactive
DEFB105B (defensin beta 105B),1.12,active
RASA4 (RAS p21 protein activator 4),-0.601,inactive
ECM1 (extracellular matrix protein 1),1.7,active
RGS4 (regulator of G protein signaling 4),-1.23,active
RERG (RAS like estrogen regulated growth inhibitor),-1.38,active
ZMYND15 (zinc finger MYND-type containing 15),-0.591,inactive
RBM7 (RNA binding motif protein 7),-1.12,active
NXF5 (nuclear RNA export factor 5),-2.35,active
SPRR3 (small proline rich protein 3),0.49,inactive
RPGR (retinitis pigmentosa GTPase regulator),-0.597,inactive
ITFG1 (integrin alpha FG-GAP repeat containing 1),1.18,active
HAUS4 (HAUS augmin like complex subunit 4),0.876,inactive
KRTAP1-5 (keratin associated protein 1-5),-0.297,inactive
SF1 (splicing factor 1),-1.35,active
TMEM88 (transmembrane protein 88),-0.845,inactive
ADARB2 (adenosine deaminase RNA specific B2 (inactive)),-1.28,active
BOLA2B (bolA family member 2B),-1.04,active
ACSL1 (acyl-CoA synthetase long chain family member 1),-0.677,inactive
CST8 (cystatin 8),-0.334,inactive
TLL2 (tolloid like 2),0.506,inactive
ENC1 (ectodermal-neural cortex 1),-1.67,active
"TSKU (tsukushi, small leucine rich proteoglycan)",-0.602,inactive
"PSMD12 (proteasome 26S subunit, non-ATPase 12)",0.585,inactive
MYL5 (myosin light chain 5),-0.813,inactive
SATB2 (SATB homeobox 2),-1.98,active
ELK4 (ETS transcription factor ELK4),-2.23,active
TBX18 (T-box transcription factor 18),-0.988,inactive
ZBED3 (zinc finger BED-type containing 3),0.486,inactive
KRT38 (keratin 38),-2.02,active
JMJD7 (jumonji domain containing 7),-1.58,active
LYRM7 (LYR motif containing 7),-0.836,inactive
IL22RA2 (interleukin 22 receptor subunit alpha 2),0.533,inactive
RRS1 (regulator of ribosome synthesis 1),1.39,active
PPP4R4 (protein phosphatase 4 regulatory subunit 4),-1.42,active
TSPAN1 (tetraspanin 1),2.03,active
CDH9 (cadherin 9),-0.678,inactive
CCL26 (C-C motif chemokine ligand 26),0.0919,inactive
